Structures are written as SMILES.

For series [1], the system named is LLCPK cells conditionally expressing hLAT1. The series can be described thus: LAT1-specific in vitro cytotoxicity, modified clonigenic assay. The settings on record: 3 μM, 30 min.
Series [2] has as its system L363. Put plainly: In vitro cytotoxicity, L363. The format is cell-based. The following applies: read-out: IC50 (in vitro toxicity); L363, Multiple Myeloma; 30 min treatment, 72 hours growth.
The subject of series [3] is LN229. Put plainly: In vitro cytotoxicity, LN229. The class given is cell-based. The settings on record: read-out: IC50 (in vitro toxicity); LN229, Glioblastoma; 30 min treatment, 72 hours growth.
In series [4] the test system is RPMI8266. Put plainly: In vitro cytotoxicity, RPMI8266. The class given is cell-based. The following applies: read-out: IC50 (in vitro toxicity); RPMI8266, Multiple Myeloma; 30 min treatment, 72 hours growth.
For series [5], the system named is HS5. Put plainly: In vitro cytotoxicity, HS5. The class given is cell-based. The following applies: read-out: IC50 (in vitro toxicity); HS5, Multiple Myeloma; 30 min treatment, 72 hours growth.
In series [6] the test system is U251. Put plainly: In vitro cytotoxicity, U251. The format is cell-based. The following applies: read-out: IC50 (in vitro toxicity); U251, Glioblastoma; 30 min treatment, 72 hours growth, CellTiter-Glo. In general terms: Cellular ATP, detected with luciferase, serves as a proxy for viable cell number.
Series [7] concerns MDA-MB-231. The series can be described thus: In vitro cytotoxicity, MDA-MB-231. The following applies: read-out: IC50 (in vitro toxicity); MDA-MB-231, Breast Cancer; 30 min treatment, 72 hours growth. The format is cell-based.
Series [8] relates to Human prostate cancer PC3 cells. Put plainly: Prostate cancer xenograft study, IV dosing. The settings on record: 2.5 mg/kg or 10 mg/kg IV once a week for 4 weeks.
The test system of series [9] is 42MGBA. Put plainly: In vitro cytotoxicity, 42MGBA. The format is cell-based. The following applies: read-out: IC50 (in vitro toxicity), Glioblastoma, 30 min treatment, 72 hours growth.
The test system of series [10] is PC3. The series can be described thus: In vitro cytotoxicity, PC3. The format is cell-based. The settings on record: read-out: IC50 (in vitro toxicity); PC3, Prostate Cancer; 30 min treatment, 72 hours growth.
Series [11] deals with G55. The series can be described thus: In vitro cytotoxicity, G55. The format is cell-based. The settings on record: read-out: IC50 (in vitro toxicity); G55, Glioblastoma; 30 min treatment, 72 hours growth.

For `Cc1cc(N(CCCl)CCCl)ccc1C(N)CC(=O)O` (stereo not shown), the “percent surviving cells in cells expressing LAT1 versus cells not expressing LAT1 (in words)” value in series [1] is on record as “about the same”.
The IC50 is the concentration at which inhibition is half-maximal. On to `N[C@H](CC(=O)O)Cc1ccccc1N(CCCl)CCCl`, for which the IC50 in [2] was more than 100 µM; in series [3] it was less than 100 µM; in series [4], more than 100 µM; in series [5], more than 100 µM; in series [6] it was less than 100 µM; in series [7] it was less than 100 µM. For the same compound, the IC50 in [9], in series [10] and in series [11] was less than 100 µM throughout. Besides, the body weight result in series [8] is given as “maintained weight”. The myelosuppression result in series [8] is listed as “not dectected”. The tumor growth suppression entry in series [8] (nude mice) was “dose-dependent tumor growth suppression”.
Take `N[C@H](CC(=O)O)Cc1ccc(N(CCCl)CCCl)cc1`: the half-inhibitory concentration (IC50) in series [2] is more than 100 µM; in series [3] it was less than 100 µM; in series [6] it was less than 100 µM; in series [9] it was less than 100 µM; in [10], less than 100 µM; in series [11], less than 100 µM.

The values are drawn from patent publication US10017459B2, “β-substituted β-amino acids and analogs as chemotherapeutic agents and uses thereof” (Quadriga Biosciences, Inc., priority 2015, dated 2018).
